Only a part is listed here, and it is no random draw. Inconclusive results are not listed. Active and inactive are the calls of the source. Calls come from the whole dose curve.
% is set by controls: 0 for no effect and ±100 for the full control effect.

The nature of the assay: Primary qHTS Assay for Foot and Mouth Disease Virus Antivirals against NCGC Sytravon and CBC Compound Libraries: Firefly Luciferase Signal. Note: nearly all actives have a fitted effect of over 60% in size. The following applies: FMDV antiviral cell assay; at 57.5 µM (top of the series) unless noted. On the technique in general: In qHTS, concentration-response curves come from the screen itself.
With `Fc1ccc(CNC2=NCC(CBr)S2)cc1` (configuration not stated), the activity change, negative = inhibition was inactive: 0%.
As to `O=C(NC(Sc1ccccc1)C(Cl)(Cl)Cl)c1ccc(Cl)cc1` (configuration not stated), the activity change, negative = inhibition is inactive: -11.6%.
With `O=C(NC(Sc1ccc(Cl)cc1)C(Cl)(Cl)Cl)c1ccccc1` (configuration not stated), the activity change, negative = inhibition was inactive: 3.79%.
For `Cc1cccc(C(=O)NC(Sc2ccccc2)C(Cl)(Cl)Cl)c1` (configuration not stated), the activity change, negative = inhibition is inactive: 4.98%.
As for `Clc1cccc(NC2=NCC(CBr)S2)c1` (configuration not stated), the activity change, negative = inhibition was inactive: 31.3%.
In the case of `O=C(/C=C/c1ccccc1)NC(Sc1ccc(Cl)cc1)C(Cl)(Cl)Cl` (configuration not stated), the activity change, negative = inhibition is inactive: 0%.
In the case of `ClCCNC1C2CC3CC(C2)CC1C3` (configuration not stated) it was inactive: 0%; in that of `Fc1ccc(NC2=NCC(CI)S2)c(F)c1` (configuration not stated), inactive: 3.3%.
Then `BrCC1CN=C(Nc2ccccc2)S1` (configuration not stated), with inactive: 45.5%; and `NNc1ccc([N+](=O)[O-])cc1[N+](=O)[O-]`, with inactive: 103%.
In the case of `Cc1ccc(C(=O)NC(Sc2ccc(Cl)cc2)C(Cl)(Cl)Cl)cc1` (configuration not stated) it was inactive: 0.411%; in that of `O=[N+]([O-])c1cccc([N+](=O)[O-])c1`, inactive: -16.2% [at 115 µM].
Take `CN(C(=O)Cc1ccc(Cl)c(Cl)c1)[C@H]1CC[C@@]2(CCCO2)C[C@@H]1N1CCCC1`: the activity change, negative = inhibition is inactive: -29.8%.
As to `Cc1ccc(C(=O)NC(Sc2ccccc2)C(Cl)(Cl)Cl)cc1` (configuration not stated), the activity change, negative = inhibition was inactive: 2.53%.
In the case of `NC(=O)Nc1ccc([As](=O)(O)O)cc1`, the activity change, negative = inhibition was inactive: 7.23%.
Turning to `Cc1cccc([N+](=O)[O-])c1[N+](=O)[O-]`, the activity change, negative = inhibition was inactive: -17.4% [at 22.9 µM].
In the case of `CCn1nc(C(=O)NCC2(N3CCCCC3)CCCCC2)c2ccccc2c1=O`, the activity change, negative = inhibition was inactive: 6.52%.
On to `CCOP(=O)(CC)Oc1ccc([N+](=O)[O-])cc1` (configuration not stated), for which the activity change, negative = inhibition is inactive: -18.5%.
`C/C1=C2N=C(/C=C3N=C(/C(C)=C4\[N-][C@@](C)([C@@H]5N=C1[C@](C)(CCC(=O)NC[C@@H](C)OP(=O)([O-])O[C@H]1[C@@H](O)[C@@H](n6cnc7cc(C)c(C)cc76)O[C@@H]1CO)[C@H]5CC(N)=O)[C@@](C)(CC(N)=O)[C@@H]4CCC(N)=O)[C@@](C)(CC(N)=O)[C@@H]\3CCC(N)=O)C(C)(C)[C@@H]/2CCC(N)=O.[C-]#N.[Co+3]`: the activity change, negative = inhibition was inactive: -20.6% [at 11.5 µM].
Take `CN(C(=O)Cc1ccccc1)[C@H]1CC[C@@]2(CCCO2)C[C@@H]1N1CCCC1`: the activity change, negative = inhibition was inactive: -14.9% [at 11.5 µM].
Then `CCNC(C)Cc1ccc2c(c1)OCO2` (configuration not stated), with inactive: 17.9% [at 27 µM]; and `BrCCNCCc1ccncc1`, with inactive: 3.1%.
